Pooled drug test results. Numbers come from NIAID ChemDB, via PubChem.

Shared fields: whole-cell or culture tests

Rows are shuffled and stem from different studies. Percent inhibition refers to the dose given; in toxicity tests it is the harm to the cells.

Nc1ccc(S(=O)(=O)c2ccc(N)cc2)cc1 ; species: Mycobacterium avium complex ; read-out: MIC ; strain: 3404-4 ; value: >64 µg/mL
Cc1ccn2c(C(=O)NCc3ccc(N4CCN(c5ccc(OC(F)(F)F)cc5)[C@@H](C)C4)c(F)c3)c(C)nc2c1 ; species: Mycobacterium avium ; dose: 0.021 µM ; method: fluorescence ; read-out: inhibition ; value: 85%
Cc1ccc2oc(=S)n(-c3ccc(C(F)(F)F)cc3)c(=S)c2c1 ; setting: 14 d ; species: Mycobacterium kansasii ; read-out: MIC ; strain: 6509/96 ; value: 16 µM
CC[C@H]1OC(=O)[C@H](C)[C@@H](O[C@H]2C[C@@](C)(OC)[C@@H](OC(C)=O)[C@H](C)O2)[C@H](C)[C@@H](O[C@@H]2O[C@H](C)C[C@H](N(C)C)[C@H]2O)C(C)(O)C[C@@H](C)/C(=N\OCCCCCc2ccccc2)[C@H](C)[C@@H](O)[C@]1(C)O ; species: Mycobacterium avium complex ; read-out: MIC ; strain: 20039 (clarithromycin-susceptible) ; value: 1.56 µg/mL
CCc1nc2cc(F)ccn2c1C(=O)NCc1ccc(C2CCN(c3ccc(OCC(F)(F)F)nc3)CC2)cc1F.Cl ; species: Mycobacterium avium ; dose: 0.026 µM ; method: fluorescence ; read-out: inhibition ; value: 85%
CC(C)N=C(N)/N=C(\N)NOCCCOc1cc(Cl)c(Cl)cc1Cl ; species: Mycobacterium avium complex ; read-out: MIC ; strain: 3010 ; value: 32 µg/mL
CCCCCCCCCN(CCCCCCCCC)C(=O)NC(CCC(=O)O)(CCC(=O)O)CCC(=O)O ; species: Mycobacterium marinum ; read-out: MIC ; strain: ATCC 927 ; value: 35 µg/mL
COc1ccc2oc(=O)n(-c3cccc(Cl)c3)c(=S)c2c1 ; setting: 14 d ; species: Mycobacterium kansasii ; read-out: MIC ; strain: 6509/96 ; value: 16 µM
CC[C@H]1OC(=O)[C@H](C)[C@@H](OC(=O)CCc2ccccc2)[C@H](C)[C@@H](O[C@@H]2O[C@H](C)C[C@H](N(C)C)[C@H]2O)C(C)(O)C[C@@H](C)/C(=N\OCCCOc2ccccc2)[C@H](C)[C@@H](O)[C@]1(C)O ; species: Mycobacterium avium complex ; read-out: MIC ; strain: 20039 (clarithromycin-susceptible) ; value: 3.13 µg/mL
CCCCCCCCCCCCCCCCCC(=O)NC(CCC(=O)O)(CCC(=O)O)CCC(=O)O ; species: Mycobacterium marinum ; read-out: MIC ; strain: ATCC 927 ; value: 288 µg/mL
O=c1oc2ccc(Br)cc2c(=S)n1-c1cccc(F)c1 ; setting: 14 d ; species: Mycobacterium kansasii ; read-out: MIC ; strain: My 235/80 ; value: 8 µM
CCCCCCCCCC(CCCCCCCCC)NC(=O)NC(CCC(=O)O)(CCC(=O)O)CCC(=O)O ; species: Mycobacterium chelonae ; read-out: MIC ; strain: EO-P-1 ; value: 108 µg/mL
Cc1nc2cnccn2c1C(=O)NCc1ccc(N2CCN(c3ccc(OC(F)(F)F)cc3)CC2)c(F)c1 ; species: Mycobacterium avium ; dose: 0.66 µM ; method: fluorescence ; read-out: inhibition ; value: 85%
CO[C@H]1/C=C/O[C@@]2(C)Oc3c(C)c(O)c4c(O)c(c(/C=N/N5CCN(C6CCCC6)CC5)c(O)c4c3C2=O)NC(=O)/C(C)=C\C=C\[C@H](C)[C@H](O)[C@@H](C)[C@@H](O)[C@@H](C)[C@H](OC(C)=O)[C@@H]1C ; species: Mycobacterium avium intracellulare ; read-out: MIC ; strain: LYN ; value: 0.5 µg/mL
CCc1nc2cc(F)ccn2c1C(=O)NCc1ccc(N2CCN(c3ccc(C(F)(F)F)cc3)[C@@H](C)C2)c(F)c1.Cl ; species: Mycobacterium avium ; dose: 0.0014 µM ; method: fluorescence ; read-out: inhibition ; value: 85%
Cc1ccc(-n2c(=O)oc3ccc(Br)cc3c2=S)cc1 ; setting: 21 d ; species: Mycobacterium kansasii ; read-out: MIC ; strain: 6509/96 ; value: 4 µM
CCCCCCCCCCCCCCCCCCCCCCC(=O)NC(C)(CCC(=O)O)CCC(=O)O ; species: Mycobacterium chelonae ; read-out: MIC ; strain: EO-P-1 ; value: 36 µg/mL
COc1ccn2nc(C)c(C(=O)NCc3ccc(N4CCC(c5ccc(OC(F)(F)F)cc5)CC4)cc3)c2c1 ; species: Mycobacterium avium ; dose: 0.028 µM ; method: fluorescence ; read-out: inhibition ; value: 85%
CCCCCCCN(CCCCCCC)C(=O)NC(CCC(=O)O)(CCC(=O)O)CCC(=O)O ; species: Mycobacterium marinum ; read-out: MIC ; strain: ATCC 927 ; value: 54 µg/mL
Cc1ccc(-n2c(=S)oc3ccc(F)cc3c2=S)cc1 ; setting: 21 d ; species: Mycobacterium kansasii ; read-out: MIC ; strain: 6509/96 ; value: 4 µM
CC(C)CCC[C@@H](C)[C@H]1CC[C@H]2[C@@H]3CC[C@H]4C[C@H](NC(=O)NC(CCC(=O)O)(CCC(=O)O)CCC(=O)O)CC[C@]4(C)[C@H]3CC[C@]12C ; species: Mycobacterium abscessus ; read-out: MIC ; strain: AAy-P-1 ; value: 4.5 µg/mL
Fc1cccc(-n2c(=S)oc3ccc(Br)cc3c2=S)c1 ; setting: 21 d ; species: Mycobacterium kansasii ; read-out: MIC ; strain: My 235/80 ; value: 16 µM

2 of the rows above, restated:

{"compound": "CC(C)CCC[C@@H](C)[C@H]1CC[C@H]2[C@@H]3CC[C@H]4C[C@H](NC(=O)NC(CCC(=O)O)(CCC(=O)O)CCC(=O)O)CC[C@]4(C)[C@H]3CC[C@]12C", "species": "Mycobacterium abscessus", "read-out": "MIC", "strain": "AAy-P-1", "value": "4.5 µg/mL"}
{"compound": "CCCCCCCN(CCCCCCC)C(=O)NC(CCC(=O)O)(CCC(=O)O)CCC(=O)O", "species": "Mycobacterium marinum", "read-out": "MIC", "strain": "ATCC 927", "value": "54 µg/mL"}